According to patent US10752656B2, “Anti-microbial supramolecular structures” (Northwestern University, priority 2016, dated 2020):
Entries after “also recorded” stand apart in the source; their conditions may differ. Non-standard residues stand in square brackets, D forms with d. Residues, ends and D or L forms follow the SMILES beside them. *: point of attachment. Phe(F5) = N[C@@H](Cc1c(F)c(F)c(F)c(F)c1F)C(=O)O; Palmitoyl = CCCCCCCCCCCCCCCC(=O)*

What was measured:
[1] = Absorption of PAs by artificial lipid bilayer (QCM-D); settings: for absorbed amount by the lipid bilayer: as a function of the concentration of the solutions; for energy dissipation on absorption: compared to parent PA and PA Z1
[2] = Fluorescence microscopy of supported lipid bilayers treated with the PAs; settings: after absorption of the PA and rinsing

Compound	absorbed amount by the lipid bilayer [1]	structure of the lipid bilayer after rinsing with buffer solution [2]	energy dissipation on absorption [1]
CCCCCCCCCCCCCCCC(=O)N[C@@H](Cc1c(F)c(F)c(F)c(F)c1F)C(=O)N[C@H](C(=O)N[C@H](C(=O)N[C@@H](C)C(=O)N[C@@H](C)C(=O)N[C@@H](C)C(=O)N[C@@H](CCC(=O)O)C(=O)N[C@@H](CCC(=O)O)C(=O)N[C@@H](CCC(=O)O)C(N)=O)C(C)C)C(C)C [PA Z1] (Palmitoyl-[Phe(F5)]VVAAAEEE-NH2; C-terminus assumed)	efficiently absorbed		
CCCCCCCCCCCCCCCC(=O)N[C@H](C(=O)N[C@@H](Cc1c(F)c(F)c(F)c(F)c1F)C(=O)N[C@H](C(=O)N[C@@H](C)C(=O)N[C@@H](C)C(=O)N[C@@H](C)C(=O)N[C@@H](CCC(=O)O)C(=O)N[C@@H](CCC(=O)O)C(=O)N[C@@H](CCC(=O)O)C(N)=O)C(C)C)C(C)C [PA Z2] (Palmitoyl-V[Phe(F5)]VAAAEEE-NH2; C-terminus assumed)	efficiently absorbed; also recorded: efficient uptake	formation of many dark pores	large energy dissipation
CCCCCCCCCCCCCCCC(=O)N[C@H](C(=O)N[C@H](C(=O)N[C@@H](Cc1c(F)c(F)c(F)c(F)c1F)C(=O)N[C@@H](C)C(=O)N[C@@H](C)C(=O)N[C@@H](C)C(=O)N[C@@H](CCC(=O)O)C(=O)N[C@@H](CCC(=O)O)C(=O)N[C@@H](CCC(=O)O)C(N)=O)C(C)C)C(C)C [PA Z3] (Palmitoyl-VV[Phe(F5)]AAAEEE-NH2; C-terminus assumed)	poor absorption	more or less intact; also recorded: formation of many dark pores	large energy dissipation
CCCCCCCCCCCCCCCC(=O)N[C@H](C(=O)N[C@H](C(=O)N[C@H](C(=O)N[C@@H](C)C(=O)N[C@@H](C)C(=O)N[C@@H](C)C(=O)N[C@@H](CCC(=O)O)C(=O)N[C@@H](CCC(=O)O)C(=O)N[C@@H](CCC(=O)O)C(N)=O)C(C)C)C(C)C)C(C)C [parent PA, reference compound] (Palmitoyl-VVVAAAEEE-NH2; C-terminus assumed)	efficiently absorbed; also recorded: efficient uptake	more or less intact	
